Reference: article PMC10657842

System: MvaT-His
Test: EMSA
Details: 0.5-2 uM MvaT, 20 ng probe; recombinant protein; residues 1-125; protein details: C-terminal His (pET28a NcoI-XhoI); probe letters rebuilt from the primers and the genome

“ATACGGCCTGCGAACTCGGCAAGCAGTCGGTTGACCTTGCTCGTTAAATCCATGGGGGCGCCTCCTAAAGCTCAGCGCATGCTAGCACCGGGCTATGCATCGCTTTTGTCACTGAGAGACTTTTCTTTTAAGAAAAAAGCCACATCGCTGTGGCCTTTTCCTCCCGCGCGGAGACGGCTCAGACCACTCCGGCCGCCGCACGCCAGGCCTGGTTATGGCTCTGGGTGTACTGCTGGATGAGCTGCAGGACGTCCTTCATGAAGCCGGCATCGAAGCTCATCTGGTCCTCGACCTTCTGCTTCTGGCTCTGCCCGATGGTGGCGTTGACCTCTCCTTCCCGGGCGCTCGCCTGCGATTCGCCCTGGCGCACCTGGACCGAGGCGTTGGCCATCTGGACGAAGGACTGGATCACCGTGTTGGCCACCTGCAGGGCGCCGTTGCGGCTCTCGAAGGCACGGCCCGCCGCACGCAACGCCACACTGTCCTGCACCTGGTCCGCC (double strand) [PexsC promoter EMSA probe]”: binds.
